Measured values from several laboratories, pooled; numbers as filed in NIAID ChemDB.

Common to all: whole-cell or culture tests; species: Herpes simplex virus 1; cells: HEL; read-out: EC50

ECn is the concentration giving n% inhibition of infection, replication or growth. Blank or dashed fields: not listed here. Neighbouring rows are from separate reports.

structure | strain | mutations | read by | result
O=c1c2ncn(COCCO)c2nc2[nH]c(-c3ccccc3)c(Cc3ccccc3)n12 | TK- |  | cytopathic effect | >16 µg/mL
Nc1ccn(C[C@@H](CO)OCP(=O)(O)O)c(=O)n1 | KOS |  | plaque count | 1.2 µM
CCCCC#Cc1c[nH]c(=O)[nH]c1=O | KOS |  | cytopathic effect | >200 µM
CCOC(=O)C1=CSc2nnc(-c3cn(-c4ccccc4)nc3-c3ccccc3)n2N=C1N | KOS (TK-) |  | cytopathic effect | >16 µg/mL
Nc1nc2c(ncn2CC(CO)CCO)c(=O)[nH]1 | C42 |  | plaque count | 0.2 µM
CC(C)NS(=O)(=O)c1ccccc1C(=O)N/N=C/c1ccc(F)cc1 | KOS |  | cytopathic effect | >100 µM
Nc1nc(=O)n([C@@H]2O[C@H](CO)[C@@H](O)[C@@H]2F)cc1I | KOS |  | cytopathic effect | 0.02 µg/mL
CCCCCCC#Cc1cn(S(=O)(=O)c2ccc(C)cc2)c(=O)[nH]c1=O | KOS |  | cytopathic effect | >200 µM
Nc1nc2c(ncn2C/C=C\CO)c(=O)[nH]1 | C42 |  | plaque count | 1.6 µM
CCCCCCCC/C=C/CCCCCCCC(=O)OCC(CO)OCn1cnc2c(=O)[nH]c(N)nc21 | HU-3 |  | cytopathic effect | 0.0002 µM
CC1=Nn2c(nnc2-c2cn(-c3ccccc3)nc2-c2ccccc2)SC1 | KOS (TK-) |  | cytopathic effect | >16 µg/mL
Nc1nc2c(ncn2COCCO)c(=O)[nH]1 | VR/TK- |  | plaque count | 444 µM
CC(C)NS(=O)(=O)c1ccccc1C(=O)N/N=C/c1ccc(-c2cccs2)cc1 | KOS |  | cytopathic effect | >100 µM
Cc1cn([C@@]2(/C=C/C#N)C[C@H](O)[C@@H](CO)S2)c(=O)[nH]c1=O |  |  | cytopathic effect | >100 µg/mL
Nc1nc2c(ncn2CC(CO)CCO)c(=O)[nH]1 | R35 |  | cytopathic effect / ELISA | 4.6 µM
Cc1cn([C@@]2(CO)C[C@H](O)[C@@H](CO)S2)c(=O)[nH]c1=O |  |  | cytopathic effect | >100 µg/mL
O=c1c2ncn(COCCO)c2nc2[nH]c(-c3ccccc3)c(Cc3ccc(F)cc3)n12 | KOS |  | cytopathic effect | >16 µg/mL
O=C(O)P(=O)(O)O | HU-10 |  | cytopathic effect | >667 µM
Cc1cn([C@@H]2O[C@H](CO)[C@@H](O)[C@@H]2O)c(=O)[nH]c1=O | WT-34 |  | plaque count | 0.33 µM
Nc1nc2c(ncn2COCCO)c(=O)[nH]1 | C42 |  | plaque count | 0.1 µM
O=c1c2ncn(COC(CO)CO)c2nc2[nH]c(-c3ccc(F)cc3)cn12 | F |  | cytopathic effect | 0.384 µg/mL
Nc1nc2c(ncn2CCCCO)c(=O)[nH]1 | C42 |  | plaque count | 0.1 µM
C#Cc1cn(S(=O)(=O)c2ccc(C)cc2)c(=O)[nH]c1=O | KOS |  | cytopathic effect | >200 µM
Nc1nc2c(ncn2CCC(CO)CO)c(=O)[nH]1 | KOS |  | plaque count | 1.5 µg/mL
O=C(O)C(O[C@@H]1C=C[C@H](n2cc(F)c(=O)[nH]c2=O)C1)P(=O)(O)O | KOS | TK-deficient acyclovir-resistant | cytopathic effect | >250 µM
Nc1nc2c(ncn2CCCC(CO)CO)c(=O)[nH]1 | R35 |  | cytopathic effect / ELISA | 0.7 µM
O=c1c2ncn(COC(CO)CO)c2nc2[nH]c(-c3ccc(C(F)(F)F)cc3)cn12 | F |  | cytopathic effect | 0.384 µg/mL
Cc1ccc(C)c(NC(=O)CN2C(=O)c3ccccc3S2(=O)=O)c1 | KOS | TK-deficient acyclovir-resistant | cytopathic effect | >100 µM
N#CC1=CSc2nnc(-c3cn(-c4ccccc4)nc3-c3ccccc3)n2N=C1N | KOS |  | cytopathic effect | >80 µg/mL
Nc1nc2c(ncn2C[C@H](CO)CCO)c(=O)[nH]1 | R35 |  | cytopathic effect / ELISA | >100 µM
O=c1[nH]c(=O)n([C@H]2C[C@H](O)[C@@H](CO)O2)cc1/C=C/Br | KOS |  | cytopathic effect | 0.02 µM
Nc1nc(=O)n([C@@H]2CC[C@H](CO)O2)cc1F | WT-34 |  | plaque count | 3.5 µM
CC(C)NS(=O)(=O)c1ccccc1C(=O)N/N=C/c1ccc(Br)cc1 | KOS |  | cytopathic effect | >100 µM
O=c1[nH]c(=O)n([C@@H]2O[C@H](CO)[C@@H](O)[C@@H]2O)cc1/C=C/Br | VR-3 |  | plaque count | 0.08 µM
CCCCCCCC/C=C/CCCCCCCC(=O)O | HU-5 |  | cytopathic effect | >100 µM
Nc1nc2c(ncn2CCC(CO)CO)c(=O)[nH]1 | 20 clinical isolates |  | ELISA | 0.8 µg/mL
Nn1c(SCC(=O)O)nnc1-c1cn(-c2ccccc2)nc1-c1ccccc1 | KOS |  | cytopathic effect | >80 µg/mL
Nc1nc2c(ncn2COC(CO)CO)c(=O)[nH]1 | R35 |  | cytopathic effect / ELISA | 0.4 µM
C/C(=N/NC(N)=S)c1ccc(NC(=O)CN2C(=O)c3ccccc3S2(=O)=O)cc1 | KOS | TK-deficient acyclovir-resistant | cytopathic effect | >100 µM

Repeating the first 4 entries:

structure	strain	mutations	read by	result
O=c1c2ncn(COCCO)c2nc2[nH]c(-c3ccccc3)c(Cc3ccccc3)n12	TK-		cytopathic effect	>16 µg/mL
Nc1ccn(C[C@@H](CO)OCP(=O)(O)O)c(=O)n1	KOS		plaque count	1.2 µM
CCCCC#Cc1c[nH]c(=O)[nH]c1=O	KOS		cytopathic effect	>200 µM
CCOC(=O)C1=CSc2nnc(-c3cn(-c4ccccc4)nc3-c3ccccc3)n2N=C1N	KOS (TK-)		cytopathic effect	>16 µg/mL